Compound potency records, mixed from different reports. Data source: NIAID ChemDB in PubChem.

Common to all: growth or infection tests; organism: HIV-1; method: luciferase; measure: EC50

ECn: concentration that inhibits the pathogen or its effect by n%. Rows are shuffled and stem from different studies.

{"compound": "C[C@H]1CN(C(=NC#N)c2ccccc2)CCN1C(=O)C(=O)c1c[nH]c2c(Br)ccc(F)c12", "cell line": "HeLa(CD4+) + HeLa", "strain or isolate": "Luciferase reporter virus", "result": "<0.5 µM"}
{"compound": "Cc1ccc(N(C)C(=O)[C@H](Cc2cc(F)cc(F)c2)NC(=O)NS(=O)(=O)N[C@@H](Cc2cc(F)cc(F)c2)C(=O)N(C)c2ccc(C)nc2)cn1", "cell line": "MT-2", "strain or isolate": "NL4-3", "result": "0.58 µM"}
{"compound": "COc1ccc(OC)c2c(C(=O)C(=O)N3CCN(C(=O)c4ccccc4)CC3)c[nH]c12", "cell line": "HeLa + HELA CD4+/CCR5", "result": "<10 µM"}
{"compound": "COc1ncc(OC)c2c(C(=O)C(=O)N3CC/C(=C(\\C#N)c4ccccc4)CC3C)c[nH]c12", "cell line": "HeLa", "result": "<1 µM"}
{"compound": "COc1ccc(-n2ccnc2[C@H](Cc2ccccc2)NC(=O)CN2c3ccccc3N(CC(=O)N[C@@H](Cc3ccccc3)c3nccn3-c3ccc(OC)cc3)S2(=O)=O)cc1", "cell line": "MT-2", "strain or isolate": "NL4-3", "result": "6.7 µM"}
{"compound": "Cc1ccc(C(=O)N2CCN(C(=O)C(=O)c3c[nH]c4cccc(F)c34)CC2)cn1", "cell line": "HeLa + HELA CD4+/CCR5", "result": "<10 µM"}
{"compound": "CN(C(=O)[C@H](Cc1cc(F)cc(F)c1)NC(=O)NS(=O)(=O)N[C@@H](Cc1cc(F)cc(F)c1)C(=O)N(C)c1ccc(C(C)(C)C)cc1)c1ccc(C(C)(C)C)cc1", "cell line": "MT-2", "strain or isolate": "NL4-3", "result": "0.15 µM"}
{"compound": "O=C(C(=O)N1CCN(C(=NCCN2CCOCC2)c2ccccc2)CC1)c1c[nH]c2cccc(F)c12", "cell line": "HeLa(CD4+) + HeLa", "strain or isolate": "Luciferase reporter virus", "result": ">0.5 µM"}
{"compound": "C=C(C)c1nnc(C(=C2CCN(C(=O)C(=O)c3c[nH]c4c(-n5cnc(C)n5)ncc(OC)c34)CC2)c2ccccc2)o1", "cell line": "HeLa", "result": "<1 µM"}
{"compound": "O=C1Nc2ccc(Cl)cc2[C@@](C#CC2CC2)(C(F)(F)F)O1", "cell line": "HEK293T", "changes": "N348I", "strain or isolate": "94ug114.1.6", "result": "15.88 nM"}
{"compound": "COc1ncc(OC)c2c(C(=O)C(=O)N3CCC(=C(C#CC(C)C)c4ccccc4)CC3)c[nH]c12", "cell line": "HeLa", "result": "<1 µM"}
{"compound": "COc1ccc(N(C)C(=O)[C@H](Cc2ccccc2)NC(=O)Cn2c(=O)n(CC(=O)N[C@@H](Cc3ccccc3)C(=O)N(C)c3ccc(OC)cc3)c3cc(N)ccc32)cc1", "cell line": "MT-2", "strain or isolate": "NL4-3", "result": "0.34 µM"}
{"compound": "COc1ccnc2[nH]cc(C(=O)C(=O)N3C4CCCC3CN(C(=O)c3ccccc3)C4)c12", "cell line": "TZM-bl", "strain or isolate": "PVO", "result": "0.51 µM"}
{"compound": "CC(C)NC(=O)/N=C(\\c1ccccc1)N1CCN(C(=O)C(=O)c2c[nH]c3cccc(F)c23)CC1", "cell line": "HeLa(CD4+) + HeLa", "strain or isolate": "Luciferase reporter virus", "result": ">0.5 µM"}
{"compound": "COC(=O)c1ccc(-c2ncc(OC)c3c(C(=O)C(=O)N4CCC(=C(C#N)c5ccccc5)CC4)c[nH]c23)cc1", "cell line": "HeLa", "result": "<1 µM"}
{"compound": "O=C(C(=O)N1CCN(C(=O)c2ccc(-c3ccccn3)cc2S)CC1)c1c[nH]c2cccc(Cl)c12", "cell line": "HeLa + HELA CD4+/CCR5", "result": "<10 µM"}
{"compound": "COc1cnc(-c2cnccn2)c2[nH]cc(C(=O)C(=O)N3CCC(=C(C#N)c4ccccn4)CC3)c12", "cell line": "HeLa", "result": "<1 µM"}
{"compound": "COc1ccc(NC(=O)[C@H](Cc2ccccc2)NS(=O)(=O)NC(=O)N[C@@H](Cc2ccccc2)C(=O)N(C)c2ccc(OC)cc2)cc1", "cell line": "MT-2", "strain or isolate": "NL4-3", "result": "12.37 µM"}
{"compound": "N=C(c1ccccn1)N1CCN(C(=O)C(=O)c2c[nH]c3c(-n4ccnn4)ncc(F)c23)CC1", "cell line": "HeLa(CD4+) + HeLa", "strain or isolate": "Luciferase reporter virus", "result": "<0.5 µM"}
{"compound": "CCN(C(=O)[C@H](Cc1cc(F)cc(F)c1)NC(=O)NS(=O)(=O)N[C@@H](Cc1cc(F)cc(F)c1)C(=O)N(CC)c1ccc(NC(=O)OC)cc1)c1ccc(NC(=O)OC)cc1", "cell line": "MT-2", "strain or isolate": "NL4-3", "result": "1.64 µM"}
{"compound": "O=C(C(=O)N1CCN(C(=O)c2ccccc2S)CC1)c1c[nH]c2cccc(F)c12", "cell line": "HeLa + HELA CD4+/CCR5", "result": "<10 µM"}
{"compound": "C[C@@H]1CCO[C@H]2Cn3cc(C(=O)NCc4ccc(F)cc4F)c(=O)c(O)c3C(=O)N12", "cell line": "TZM-bl", "changes": "M184V", "strain or isolate": "NL4-3", "result": "0.0011 µM"}
{"compound": "COc1ccnc2[nH]cc(C(=O)C(=O)N3C4CC3CN(C(=O)c3ccccc3)C4)c12", "cell line": "TZM-bl", "strain or isolate": "QH0692", "result": ">>250 µM"}
{"compound": "Cc1cc(S(N)(=O)=O)ccc1NC(=O)COc1ccc(Cl)cc1C(=O)c1cc(F)cc(C(F)(F)F)c1", "cell line": "HELA MAGI", "changes": "RT-V106A", "strain or isolate": "IIIB", "result": "0.01 µM"}
{"compound": "CC1CN(C(=O)c2ccccc2)CCN1C(=O)C(=O)c1c[nH]c2cccc(F)c12", "cell line": "HeLa + HELA CD4+/CCR5", "result": "<10 µM"}
{"compound": "COc1ccc(N(C)C(=O)[C@H](Cc2ccccc2)NC(=O)Cn2c(=O)n(CC(=O)N[C@@H](Cc3ccccc3)C(=O)N(C)c3ccc(OC)cc3)c3c(Cl)cccc32)cc1", "cell line": "MT-2", "strain or isolate": "NL4-3", "result": "0.07 µM"}
{"compound": "C[C@]1(CO)O[C@@H](n2cnc3c(N)ncnc32)C[C@@H]1O", "cell line": "HOS", "changes": "Q151M (delta)Env", "result": "0.111 µM"}
{"compound": "COc1ccc(N(C)C(=O)[C@H](Cc2cc(F)cc(F)c2)NC(=O)NS(=O)(=O)N[C@@H](Cc2cc(F)cc(F)c2)C(=O)N(C)c2ccc(OC)nc2)cn1", "cell line": "MT-2", "strain or isolate": "NL4-3", "result": "0.04 µM"}
{"compound": "COC(=O)c1cccc2c(C(=O)C(=O)N3CCN(C(=O)c4ccccc4)CC3CC(C)C)c[nH]c12", "cell line": "HeLa + HELA CD4+/CCR5", "result": "<10 µM"}
{"compound": "N#CN=C(c1ccccc1)N1CCN(C(=O)C(=O)c2c[nH]c3c(Br)ccc(F)c23)CC1", "cell line": "HeLa(CD4+) + HeLa", "strain or isolate": "Luciferase reporter virus", "result": "<0.5 µM"}
{"compound": "COc1ccc(N(C)C(=O)[C@H](Cc2cc(F)cc(F)c2)NC(=O)NS(=O)(=O)N[C@@H](Cc2cc(F)cc(F)c2)C(=O)N(C)c2ccc(OC)cc2)cc1", "cell line": "MT-2", "strain or isolate": "NL4-3", "result": "0.01 µM"}

Repeating the first 4 entries:

C[C@H]1CN(C(=NC#N)c2ccccc2)CCN1C(=O)C(=O)c1c[nH]c2c(Br)ccc(F)c12 ; cell line: HeLa(CD4+) + HeLa ; strain or isolate: Luciferase reporter virus ; result: <0.5 µM
Cc1ccc(N(C)C(=O)[C@H](Cc2cc(F)cc(F)c2)NC(=O)NS(=O)(=O)N[C@@H](Cc2cc(F)cc(F)c2)C(=O)N(C)c2ccc(C)nc2)cn1 ; cell line: MT-2 ; strain or isolate: NL4-3 ; result: 0.58 µM
COc1ccc(OC)c2c(C(=O)C(=O)N3CCN(C(=O)c4ccccc4)CC3)c[nH]c12 ; cell line: HeLa + HELA CD4+/CCR5 ; result: <10 µM
COc1ncc(OC)c2c(C(=O)C(=O)N3CC/C(=C(\C#N)c4ccccc4)CC3C)c[nH]c12 ; cell line: HeLa ; result: <1 µM